Laboratory results: patent publication US20240109955A1 (published 2024)
Where a chain is given by its changes, count along the chain named.

B1: MX829 (bispecific antibody)
chain: DIQMTQSPSSVSASVGDRVIITCRASQGISSWLAWYQQKPGKAPKVLIYDASSLQSGVPSRFSGSGYGTDFTLTISSLQPEDSATYYCQQAKSFPITFGQGTRLEIKGGSSGEIVLTQSPGTLSLSPGERATLSCRASQSVSSSYLAWYQQKPGQAPRLLIYSASSRATGIPDRFSGSGSGTDFTLTISRLEPEDFAVYFCQQYVGLTGWTFGQGTKVEIKGGGGSGGSGSGGGGSASGSGQMQLVQSGPEVKKPGTSVKVSCKASGFTFTSSAVQWVRQRQRLEWIGWIVVGSGNTNYAQKFQERVTITRDMSTSTAYMELSSLRSEDTAVYYCAAPNCSNVVCYDGFDIWGQGTMVTVSSGGSSGQVQLVESGGGVVQPGRSLRLSCAASGFTFSSYAFHWVRQAPGKGLEWVAVISYDGSNQYYADSVKGRFTISRDNSKNTLYLQMNSLRADDTAVYYCARDLAIAVAGTWHYYNGMDVWGQGTTVTVSSASGGSGDKTHTCPPCPAPELLGGPSVFLFPPKPKDTLMISRTPEVTCVVVDVSHEDPEVKFNWYVDGVEVHNAKTKPREEQYNSYVVSVLTVLHQDWLNGKEYKCKVSNKALPAPIEKTISKAKGQPREPQVYTLPPSRDELTKNQVSLTCLVKGFYPSDIAVEWESNGQPENNYKTTPPVLDSDGSFFKKLTVDKSRWQQGNVFSCSVLHEALHSHYTQKSLSLSPG
B2: MX831 (bispecific antibody)
chain: B1 chain with V205G
B3: A23-58.1HC/58.1LC_93VGLTG (antibody, V domains shown)
VH: QMQLVQSGPEVKKPGTSVKVSCKASGFTFTSSAVQWVRQRQRLEWIGWIVVGSGNTNYAQKFQERVTITRDMSTSTAYMELSSLRSEDTAVYYCAAPNCSNVVCYDGFDIWGQGTMVTVSS
VL: EIVLTQSPGTLSLSPGERATLSCRASQSVSSSYLAWYQQKPGQAPRLLIYSASSRATGIPDRFSGSGSGTDFTLTISRLEPEDFAVYFCQQYVGLTGWTFGQGTKVEIK
B4: MX828 (bispecific antibody)
chain: QTVVTQEPSFSVSPGGTVTLTCGLSSGSVSTAYFPSWYQQTPGQAPRTLIYGTNTRSSGVPDRFSGSILGNKAALTITGAQADDESDYYCVLYMGRGIVVFGGGTKLTVLGGSSGEIVLTQSPGTLSLSPGERATLSCRASQSVSSSYLAWYQQKPGQAPRLLIYSASSRATGIPDRFSGSGSGTDFTLTISRLEPEDFAVYFCQQYVGLTGWTFGQGTKVEIKGGGGSGGSGSGGGGSASGSGQMQLVQSGPEVKKPGTSVKVSCKASGFTFTSSAVQWVRQRQRLEWIGWIVVGSGNTNYAQKFQERVTITRDMSTSTAYMELSSLRSEDTAVYYCAAPNCSNVVCYDGFDIWGQGTMVTVSSGGSSGQVQLVESGGGVVQPGRSLRLSCAASGFTLSSYGMHWVRQAPGKGLEWVAVISYDGSNKYYVDSVKGRFTISRDNSKNTLYLQMNSLRAEDTAVYYCRWAYWELLPDYYYGMDVWGQGTTVTVSSASGGSGDKTHTCPPCPAPELLGGPSVFLFPPKPKDTLMISRTPEVTCVVVDVSHEDPEVKFNWYVDGVEVHNAKTKPREEQYNSYVVSVLTVLHQDWLNGKEYKCKVSNKALPAPIEKTISKAKGQPREPQVYTLPPSRDELTKNQVSLTCLVKGFYPSDIAVEWESNGQPENNYKTTPPVLDSDGSFFKKLTVDKSRWQQGNVFSCSVLHEALHSHYTQKSLSLSPG
B5: MX830 (bispecific antibody)
chain: B4 chain with V208G
B6: MX834 (other)
chain 1: B4 chain with S632C, T644W
chain 2: B4 chain with S632C, T644W
B7: MX837 (other)
chain 1: B4 chain with S632C, T644W
chain 2: DIQMTQSPSSVSASVGDRVIITCRASQGISSWLAWYQQKPGKAPKVLIYDASSLQSGVPSRFSGSGYGTDFTLTISSLQPEDSATYYCQQAKSFPITFGQGTRLEIKGGSSGEIVLTQSPGTLSLSPGERATLSCRASQSVSSSYLAWYQQKPGQAPRLLIYSASSRATGIPDRFSGSGSGTDFTLTISRLEPEDFAVYFCQQYVGLTGWTFGQGTKVEIKGGGGSGGSGSGGGGSASGSGQMQLVQSGPEVKKPGTSVKVSCKASGFTFTSSAVQWVRQRQRLEWIGWIVVGSGNTNYAQKFQERVTITRDMSTSTAYMELSSLRSEDTAVYYCAAPNCSNVVCYDGFDIWGQGTMVTVSSGGSSGQVQLVESGGGVVQPGRSLRLSCAASGFTFSSYAFHWVRQAPGKGLEWVAVISYDGSNQYYADSVKGRFTISRDNSKNTLYLQMNSLRADDTAVYYCARDLAIAVAGTWHYYNGMDVWGQGTTVTVSSASGGSGDKTHTCPPCPAPELLGGPSVFLFPPKPKDTLMISRTPEVTCVVVDVSHEDPEVKFNWYVDGVEVHNAKTKPREEQYNSYVVSVLTVLHQDWLNGKEYKCKVSNKALPAPIEKTISKAKGQPREPQVCTLPPSRDELTKNQVSLSCAVKGFYPSDIAVEWESNGQPENNYKTTPPVLDSDGSFFLVSKLTVDKSRWQQGNVFSCSVLHEALHSHYTQKSLSLSPG

Target: SARS-CoV-2 spike protein, Delta variant (B.1.617.2) (SARS-CoV-2, UniProt P0DTC2 14-1273)
Test: cell-based or functional assay

Binder	IC50, pseudovirus neutralization	IC80, pseudovirus neutralization
B1	29.6 nM	97.8 nM
B2	29.2 nM	84 nM
B3	5.8 nM	12.4 nM
B4	74.8 nM	173 nM
B5	63.7 nM	125 nM

Target: SARS-CoV-2 spike protein, Omicron sublineage BA.4/5 (SARS-CoV-2, UniProt P0DTC2 14-1273)
Test: cell-based or functional assay

Binder	IC50, pseudovirus neutralization	IC80, pseudovirus neutralization
B1	11.5 nM	34.7 nM
B2	25.3 nM	47 nM
B3	3 nM	13.7 nM
B4	1010 nM	5320 nM
B5	533 nM	4630 nM

Target: SARS-CoV-2 spike (S) protein, Delta variant B.1.617.2 (SARS-CoV-2, UniProt P0DTC2 14-1273)
Test: cell-based or functional assay

Binder	IC50, pseudovirus neutralization	IC80, pseudovirus neutralization
B6	7.32 nM	11.3 nM
B7	10.3 nM	11.3 nM

Target: SARS-CoV-2 spike (S) protein, Omicron sublineage BA.4/5 (SARS-CoV-2, UniProt P0DTC2 14-1273)
Test: cell-based or functional assay

Binder	IC50, pseudovirus neutralization	IC80, pseudovirus neutralization
B6	12.5 nM	29.9 nM
B7	5.93 nM	17.4 nM
